## Library screen at single concentrations

The values are deposited in ChEMBL (CHEMBL3988442, “University of Dundee, Small-Polar-MMV Screening Library” (2021)).

Mtb cholesterol medium: 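Phenotypic screen: M. tuberculosis growth, cholesterol and DPPC medium, 4 days; the read-out is not stated. Tested at 500 µM. Direction is inferred from retests: higher values go with more growth inhibition. About 18,000 compounds were tested under these conditions; 5% (about 900) showed 50% or more at least once.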
Mtb glucose medium: 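Growth of Mycobacterium tuberculosis over 3 days (7H9 medium with glucose and tyloxapol); the read-out is not stated. Compounds at 500 µM. The record gives no direction; compounds that gave an IC50 in retests scored well above the rest, so higher reads as more growth inhibition. About 18,000 compounds were tested under these conditions; 7.9% (about 1,400) showed 50% or more at least once.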

Values are the deposited “Percent Effect”, in %. The controls that fix the scale are not given in the record; negative values are as filed. The entries come from a sample that favours strong results. A dash means the value is not listed here; it may have been measured.

| structure | Mtb cholesterol medium | Mtb glucose medium |
|---|---|---|
| `Cc1nc2ccc(C(=O)NC3C=CS(=O)(=O)C3)cc2o1` (stereo unspecified) | 0.9052 | - |
| `Cc1ccccc1CC(=O)NCC(F)(F)F` | - | -5.038 |
| `CNc1ccc(N)nc1` | - | -1080 |
| `CN1CC(C(=O)N2CCc3cc(Br)ccc32)CC1=O` (stereo unspecified) | - | -14.75 |
| `CC(C)N(C)CC(=O)N1CCN(CC(C)(C)O)CC1` | - | 2.216 |
| `N#CCCNC(=O)CN1CCC2(CC1)OCCO2` | 0.7085 | - |
| `O=C(N1CCCC(O)C1)C1(O)Cc2ccccc2C1` (stereo unspecified) | 8.018 | - |
| `CC(NCCCn1cccn1)c1ccc2c(c1)OCO2` (stereo unspecified) | 26.75 | 28.67 |
| `Cc1ccsc1CN(CC(=O)N1CCNC1=O)C(C)C` | - | 9.138 |
| `CNC(=O)C1CN(C(=O)Nc2cccc(Cl)c2Br)C1` | - | 12.58 |
| `CNCC(=O)NC1CCN(Cc2ccc(Br)cc2)CC1` | 52.31 | 59.03 |
| `CC(C)(C)C(=O)N1CCCN(C2CCOC2=O)CC1` (stereo unspecified) | -8.878 | - |
| `CCc1nnsc1C(=O)Nc1nnc(C)s1` | 14.99 | - |
| `COc1cc(C(=O)NC2CC2)cc(Cl)c1O` | - | 25.83 |
| `CN(C)S(=O)(=O)NCC1CCCN(Cc2ccsc2)C1` (stereo unspecified) | - | -22.37 |
| `CO[C@@H](C(=O)NCCC1=CCOCC1)c1ccccc1` | - | 15.93 |
| `COc1ccccc1S(=O)(=O)N1CCCCC1CN` (stereo unspecified) | - | 32.57 |
| `NCCCc1nc2ccccc2o1` | 66.66 | 61.32 |
| `CN(C)CCNC(=O)CCC(=O)Nc1ccc(Cl)cc1` | 15.65 | - |
| `CCCNC(=O)c1cccc(NCCCO)c1` | - | 18.04 |
| `c1cnc(N2CCN(Cc3cscn3)CC2)nc1` | - | 24.5 |
| `CC(C)Cc1ccc(CS(=O)(=O)CCO)cc1` | 80.52 | 74.51 |
| `CN(C(=O)c1ccoc1Br)c1cc(C#N)ccn1` | -9.777 | 5.379 |
| `CCNc1ncc(C(=O)N(C)Cc2ccsc2)cn1` | - | 57.77 |
| `CCOC(=O)NCCNC(=O)c1ccc(O)c(Cl)c1` | 19.76 | - |
| `Cc1ccccc1C(O)C1CCNCC1` (stereo unspecified) | -13.53 | - |
| `COc1ccccc1OCC(=O)NC(C)CCN(C)C` (stereo unspecified) | - | 12.74 |
| `COc1ccc(C(C#N)N2CCNCC2)cc1` (stereo unspecified) | - | 7.009 |
| `Cc1nc2c(cc1C(=O)NCC1CC1)c(C)nn2C` | -12.36 | - |
| `c1cc(C2CCCCN2)n[nH]1` (stereo unspecified) | -6.529 | - |
| `CSCc1nc(CN)cs1` | - | 14.91 |
| `O=C(Nc1cccc(F)c1)C1CCCN1` (stereo unspecified) | 9.919 | 23.5 |
| `COCCN1CCN(CCc2ccncc2)CC1` | -4.155 | - |
| `CCC(C)(C)NC(=O)c1nn(-c2ccccc2)nc1C` | 56.09 | 53.64 |
| `Cc1cccc(N2CCC(N3CCOC(C)C3)CC2)n1` (stereo unspecified) | 17.63 | - |
| `COc1cc(F)c(C(=O)N2CCC(OC)C2)c(F)c1` (stereo unspecified) | 2.235 | 19.11 |
| `Cc1ccc(C(=O)N2CCN(C)CC2)cn1` | - | 12.34 |
| `NC1CCN(CC2CCCC2)C1` (stereo unspecified) | - | 5.775 |
| `CC1(C)CC(CCN)CCO1` (stereo unspecified) | - | 12.32 |
| `O=C1CN(c2ccnc3cc(Br)ccc23)CCN1` | 31.56 | - |
| `CC[C@H](CO)Nc1ccnc2cc(Br)cnc12` | - | -6.916 |
| `CC1CN(C(=O)c2cnsn2)c2cccc(Cl)c2O1` (stereo unspecified) | 0.218 | 54.33 |
| `CNC(=O)CCN1CC(Oc2ccc(C)cc2)C1` | - | 13.41 |
| `CNC(=O)CCCNC(=O)Nc1nc2ccccc2s1` | - | 6.926 |
| `CNC(=O)C1(c2cccc(Cl)c2)CC1` | - | 2.802 |
| `CS(=O)(=O)N(CC(F)(F)F)c1ccncc1` | -7.793 | - |

Once more, the final 6:

structure	Mtb cholesterol medium	Mtb glucose medium
CC[C@H](CO)Nc1ccnc2cc(Br)cnc12	-	-6.916
CC1CN(C(=O)c2cnsn2)c2cccc(Cl)c2O1 (stereo unspecified)	0.218	54.33
CNC(=O)CCN1CC(Oc2ccc(C)cc2)C1	-	13.41
CNC(=O)CCCNC(=O)Nc1nc2ccccc2s1	-	6.926
CNC(=O)C1(c2cccc(Cl)c2)CC1	-	2.802
CS(=O)(=O)N(CC(F)(F)F)c1ccncc1	-7.793	-